Measured values: patent EP4825856A1, “N-SUBSTITUTED OXY-2-AMINOTHIAZOLECARBOXAMIDE COMPOUND OR SALT THEREOF AND AGRICULTURAL AND HORTICULTURAL BACTERICIDE” (dated 2026)

Experiments:
[1] = tested on: Phytophthora infestans; test: Test Example 1: fungicidal effect against tomato late blight, preventive effect (pot test, spray application before inoculation); settings: active ingredient concentration 400 ppm, 10 mL sprayed, lesion area ratio 3 days after inoculation
Description: (§1) The test compound and acetone or dimethyl sulfoxide were mixed to dissolve the test compound. The solution of the test compound was diluted with water to a predetermined concentration (400 ppm) of the test compound as an active ingredient to obtain chemical solutions. The chemical solutions thus obtained were used in the following Test Examples 1 to 3.
Test Example 1: Test on fungicidal effect against tomato late blight (Phytophthora infestans) (test on preventive effect)
Tomato was cultivated in a polyethylene pot having a diameter of 6 cm, and when the tomato reached 4.5- to 5.5-leaf stage, 10 mL of the chemical solution was applied by means of a spray gun. After the chemical solution dried (the day of application), the tomato was sprayed and inoculated with a suspension of spores of Phytophthora infestans and placed in an inoculation box at a temperature of 20°C under a humidity of 95% or higher for 16 hours. Then, the tomato was placed in a constant temperature room at 20°C. 3 Days after the inoculation, the lesion area ratio was visually examined, and the control value was calculated in accordance with the following formula. […] Control value (%) = 100−(X/Y) × 100 [formula] X: lesion area ratio (%) in treated plot, Y: lesion area ratio (%) in non-treated plot Test compounds: compound Nos. 1, 2, 3, 7, 8, 10, 11, 13, 17, 19, 32, 34, 41, 43, 47, 51, 53, 54, 55, 57, 58, 61, 71, 75, 84, 85, 86, 87, 90, 93, 94

[2] = tested on: Pseudoperonospora cubensis; test: Test Example 2: fungicidal effect against cucumber downy mildew, preventive effect (pot test, spray application before inoculation); settings: active ingredient concentration 400 ppm, 10 mL sprayed, lesion area ratio 7 days after inoculation
Description: as §1
Test Example 2: Test on fungicidal effect against cucumber downy mildew
(Pseudoperonospora cubensis) (test on preventive effect)
Cucumber was cultivated in a polyethylene pot having a diameter of 6 cm, and when the cucumber reached 1.2- to 1.5-leaf stage, 10 mL of the chemical solution was applied by means of a spray gun. After the chemical solution dried (the day of application or the next day), the cucumber was sprayed and inoculated with a suspension of spores of Pseudoperonospora cubensis and placed in an inoculation box at a temperature of 20°C under a humidity of 95% or higher for 24 hours. Then, the cucumber was placed in a constant temperature room at 20°C. 7 Days after the inoculation, the lesion area ratio was examined on the same basis as in Text Example 1, and the control value was calculated in accordance with the same formula as in Test Example 1.

[3] = tested on: Phytophthora infestans; test: Test Example 3: fungicidal effect against tomato late blight, curative effect (pot test, spray application after inoculation); settings: curative (applied 4 hours after inoculation), active ingredient concentration 400 ppm, 10 mL sprayed, lesion area ratio 3 days after inoculation
Description: as §1
Test Example 3: Test on fungicidal effect against tomato late blight (Phytophthora infestans) (test on curative effect)
Tomato was cultivated in a polyethylene pot having a diameter of 6 cm, and when the tomato reached 4.5- to 5.5-leaf stage, the tomato was sprayed and inoculated with a suspension of spores of Phytophthora infestans and placed in an inoculation box at a temperature of 20°C under a humidity of 95% or higher for 4 hours. Then, 10 mL of the chemical solution was applied by means of a spray gun. After the chemical solution dried (the day of application), the tomato was placed in a constant temperature room at 20°C. 3 Days after the inoculation, the lesion area ratio was examined on the same basis as in Test Example 1, and the control value was calculated in accordance with the same formula as in Test Example 1. […] Test Compounds: compound Nos. 3, 7, 8, 10, 11, 13, 17, 19, 32, 34, 41, 51, 54, 55, 57, 58, 61, 84, 87

Row | SMILES | control value [1] | control value [2] | control value [3]
1 | CON(Cc1ccc(F)nc1Cl)C(=O)c1sc(N)nc1F | ≥ 80% | ≥ 80% | ≥ 80%
2 | N#CCON(Cc1cc(F)c(F)nc1Cl)C(=O)c1sc(N)nc1Cl | ≥ 80% | ≥ 80% | ≥ 80%
3 | CON(Cc1cccnc1Cl)C(=O)c1sc(N)nc1Cl | ≥ 80% | – | –
4 | CON(Cc1cnccc1Cl)C(=O)c1cnc(N)s1 | ≥ 80% | – | ≥ 80%
5 | CON(Cc1cc(F)c(Cl)nc1Cl)C(=O)c1sc(N)nc1Cl | ≥ 80% | ≥ 80% | –
6 | CON(Cc1cccnc1[N+](=O)[O-])C(=O)c1sc(N)nc1Cl | ≥ 80% | – | –
7 | CON(Cc1cc(F)c(F)nc1Cl)C(=O)c1sc(N)nc1C | ≥ 80% | ≥ 80% | ≥ 80%
8 | CON(Cc1ccc(C)nc1Cl)C(=O)c1sc(N)nc1Cl | ≥ 80% | ≥ 80% | –
9 | CCON(Cc1cc(F)c(F)nc1Cl)C(=O)c1sc(N)nc1Cl | ≥ 80% | ≥ 80% | ≥ 80%
10 | COC(=O)CON(Cc1cc(F)c(F)nc1Cl)C(=O)c1sc(N)nc1Cl | ≥ 80% | ≥ 80% | –
11 | CON(Cc1cccnc1Cl)C(=O)c1cnc(N)s1 | ≥ 80% | ≥ 80% | –
12 | CON(Cc1cc(F)c(F)nc1F)C(=O)c1sc(N)nc1F | ≥ 80% | ≥ 80% | ≥ 80%
13 | CCc1nc(F)c(F)cc1CN(OC)C(=O)c1sc(N)nc1Cl | ≥ 80% | ≥ 80% | –
14 | C=Cc1nc(F)c(F)cc1CN(OC)C(=O)c1sc(N)nc1Cl | ≥ 80% | ≥ 80% | –
15 | CON(Cc1cc(F)c(F)nc1C)C(=O)c1sc(N)nc1Cl | ≥ 80% | ≥ 80% | ≥ 80%
16 | C#CCON(Cc1cc(F)c(F)nc1Cl)C(=O)c1sc(N)nc1F | ≥ 80% | ≥ 80% | ≥ 80%

Row | SMILES | control value [1] | control value [2] | control value [3]
17 | C#CCON(Cc1cc(F)c(F)nc1Cl)C(=O)c1sc(N)nc1Cl | ≥ 80% | ≥ 80% | ≥ 80%
18 | CON(Cc1cc(F)c(F)nc1Cl)C(=O)c1sc(N)nc1F | ≥ 80% | ≥ 80% | ≥ 80%
19 | CON(Cc1cccnc1C(F)(F)F)C(=O)c1sc(N)nc1Cl | ≥ 80% | – | –
20 | C=CCON(Cc1cc(F)c(F)nc1Cl)C(=O)c1sc(N)nc1Cl | ≥ 80% | ≥ 80% | ≥ 80%
21 | CON(Cc1cc(F)cnc1Cl)C(=O)c1sc(N)nc1F | ≥ 80% | ≥ 80% | ≥ 80%
22 | CON(Cc1cc(F)c(F)nc1Cl)C(=O)c1sc(N)nc1Cl | ≥ 80% | – | ≥ 80%
23 | CON(Cc1cc(F)c(F)nc1F)C(=O)c1sc(N)nc1Cl | ≥ 80% | – | ≥ 80%
24 | CON(Cc1cc(F)c(F)nc1Cl)C(=O)c1sc(N)nc1C#N | ≥ 80% | ≥ 80% | ≥ 80%
25 | CON(Cc1cnc(F)cc1Cl)C(=O)c1sc(N)nc1F | ≥ 80% | ≥ 80% | ≥ 80%
26 | CON(Cc1cnc(F)cc1Cl)C(=O)c1sc(N)nc1Cl | ≥ 80% | ≥ 80% | ≥ 80%
27 | CON(Cc1cc(F)c(F)nc1Cl)C(=O)c1cnc(N)s1 | ≥ 80% | ≥ 80% | ≥ 80%
28 | CON(Cc1cc(F)c(F)nc1Cl)C(=O)c1sc(N)nc1C(F)(F)F | ≥ 80% | ≥ 80% | –
29 | CON(Cc1cc(F)cnc1Cl)C(=O)c1sc(N)nc1Cl | ≥ 80% | ≥ 80% | ≥ 80%
30 | CON(Cc1cc(F)cnc1C#N)C(=O)c1sc(N)nc1Cl | ≥ 80% | ≥ 80% | –
31 | Cc1nc(C(F)F)c(C(=O)N(Cc2ccc(Cl)nc2)C2CC2)s1 | less than 30% | less than 30% | less than 30%
32 | CON(Cc1cccnc1C#N)C(=O)c1sc(N)nc1Cl | ≥ 80% | – | –
